## Share of PSTVd stem 15 variants by leaf site

Values reported by Wu et al. 2024 (doi:10.1371/journal.ppat.1012142).

PSTVd intermediate strain, stem 15: wild type CUGGAGCGAUCGCUUCGG, pool pattern CUGGAGCGAUNGNNUNNG; upper and lower strand joined, each 5' to 3', the first 9 letters being the upper strand.

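A pool of all variants was put on leaves of three Nicotiana benthamiana plants. Samples came from the inoculated region at 5 days, the leaf margin at 10 and upper systemic leaves at 12.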

Values are reads per thousand in the sample; higher means more abundant, 0 means not found.
Each value is the mean of three plants.
"Pool" is the share in the plasmid pool used as inoculum, on the same scale.
The inoculated region was read from the minus strand, the other sites from the plus strand.
IR is the inoculated region, LM the leaf margin, Sys the systemic leaves.

CUGGAGCGAUGGCAUAUG (pool 1.41) read IR 0.706; LM 0.101; Sys 0.
CUGGAGCGAUAGCGUUAG (pool 0.614) read IR 0.346; LM 0.0282; Sys 0.
CUGGAGCGAUGGGUUCUG (pool 0.808) read IR 0.330; LM 0.00908; Sys 0.
CUGGAGCGAUUGCCUGAG (pool 0.954) read IR 1.40; LM 0.539; Sys 0.244.
CUGGAGCGAUGGCCUAGG (pool 1.96) read IR 1.08; LM 0.0388; Sys 0.0362.
CUGGAGCGAUCGACUUCG (pool 0.711) read IR 0.372; LM 0.0334; Sys 0.581.
CUGGAGCGAUUGCUUGGG (pool 1.18) read IR 0.681; LM 0.0356; Sys 0.0133.
CUGGAGCGAUUGAUUUAG (pool 1.79) read IR 1.89; LM 0.674; Sys 0.574.
CUGGAGCGAUGGGCUGGG (pool 0.840) read IR 0.307; LM 0.0579; Sys 0.
CUGGAGCGAUCGCGUUCG (pool 0.776) read IR 0.392; LM 0.0387; Sys 0.
CUGGAGCGAUGGGAUUUG (pool 0.824) read IR 0.210; LM 0.0585; Sys 0.
CUGGAGCGAUUGAUUAGG (pool 0.986) read IR 0.216; LM 0.0403; Sys 0.
CUGGAGCGAUGGAAUUAG (pool 1.08) read IR 0.518; LM 0.0570; Sys 0.
CUGGAGCGAUAGGAUAGG (pool 0.695) read IR 0.283; LM 0.0594; Sys 0.
CUGGAGCGAUCGAAUGCG (pool 0.711) read IR 0.279; LM 0.0450; Sys 0.
CUGGAGCGAUCGCAUACG (pool 0.727) read IR 0.274; LM 0.00908; Sys 0.
CUGGAGCGAUAGGGUUUG (pool 0.857) read IR 0.291; LM 0.0144; Sys 0.
CUGGAGCGAUAGUGUUGG (pool 0.808) read IR 0.274; LM 0.0572; Sys 0.
CUGGAGCGAUUGCAUGCG (pool 0.760) read IR 0.211; LM 0.0329; Sys 0.
CUGGAGCGAUCGGAUGGG (pool 0.970) read IR 0.322; LM 0.0350; Sys 0.
CUGGAGCGAUCGAGUGUG (pool 0.905) read IR 0.318; LM 0.0191; Sys 0.
AUGGAGCGAUUGCUUCCG (pool 0.0162) read IR 0; LM 0; Sys 0.
CUGGAGCGAUGGAGUGGG (pool 0.954) read IR 0.332; LM 0.0372; Sys 0.
CUGGAGCGAUGGGAUUCG (pool 0.921) read IR 0.339; LM 0.00528; Sys 0.
CUGGAGCGAUGGUGUGAG (pool 0.873) read IR 0.399; LM 0.0463; Sys 0.
CUGGAGCGAUCGUCUGAG (pool 0.905) read IR 1.52; LM 0.532; Sys 0.
CUGGAGCGAUCGCUUCCG (pool 0.905) read IR 0.294; LM 0.0320; Sys 0.0545.

Extract of 2 entries:

sequence,pool,IR,LM,Sys
CUGGAGCGAUUGCCUGAG,0.954,1.40,0.539,0.244
CUGGAGCGAUAGUGUUGG,0.808,0.274,0.0572,0

Sequences that differ at fixed positions probably stem from PCR or sequencing errors, and defective variants can be carried along by functional ones.
With 36,693-63,082 reads a sample, very low values are single reads.
Wild type was 10.2 per thousand in the pool and the most common sequence in every sample (inoculated region 285, 367, 312; leaf margin 785, 865, 782; systemic leaves 854, 898, 915).